A mixed list of measured activities; the numbers were collected in NIAID ChemDB.

All rows: tests in culture; organism: HIV-1

Blank or dashed fields: not listed here.

compound,cell line,changes,endpoint,strain,method,result
OCC1(CO)CSSC1,CEM + CEM-SS,-,EC50,RF,cytopathic effect / XTT,>200 µM
Cc1cn([C@H]2C[C@H](N=[N+]=[N-])[C@@H](COP(=O)(O)C(=O)O)O2)c(=O)[nH]c1=O,MT-4,-,EC50,SCV 4005,antigen,0.016 µM
CCCCCCCCCCCCCCCCOCCCOP(=O)(O)COCCn1cc(F)c(=O)[nH]c1=O,MT-2,-,EC50,LAI,p24,24 µM
Cc1cn([C@H]2C[C@H](N=[N+]=[N-])[C@@H](CO)O2)c(=O)[nH]c1=O,MT-4,-,EC50,IIIB,RT activity,1.4 µM
CCCCCCCCCCCCCCCCOCCCOP(=O)(O)COCCn1ccc(N)nc1=O,MT-2,-,EC50,LAI,p24,>10 µM
CC(C)CN([C@H](CO)CCCCNC(=O)[C@@H](NC(=O)c1ccc(N)nc1)C(c1ccccc1)c1ccccc1)S(=O)(=O)c1ccc(N)cc1,MT-4,PR-M46I V82T I84V L10R L63P,EC50,4596 PR-M46I V82T I84V L10R L63P,cytopathic effect / MTT,0.072 µM
NC(=O)c1ncn([C@@H]2O[C@H](CO)[C@@H](O)[C@H]2O)n1,MT-4,RT-Y181C,EC50,IIIB MKC-442-resistant (RT Y181C),cytopathic effect / MTT,>3.3 µM
COc1ccc(Cc2cc3cc(OC)c(OC)cc3c[nH+]2)cc1OC,H9,-,EC50,IIIB,p24,>10.1 µg/mL
CC(C)(C)NC(=O)[C@@H]1C[C@@H]2CCCC[C@@H]2CN1C[C@@H](O)[C@H](Cc1ccccc1)NC(=O)[C@H](CC(N)=O)NC(=O)c1ccc2ccccc2n1,MT-4,PR-L10R M46I V82T,EC50,NL4-3,p24,<0.025 µM
CC(C)(C)C(=O)SCCOP(=O)(OCCSC(=O)C(C)(C)C)OC[C@@H]1CC[C@H](n2cnc3c(N)ncnc32)O1,CEM + CEM-SS,-,EC50,LAI,RT activity,0.0013 µM
O=C1N(Cc2cccc(CO)c2)[C@@H](CCc2ccccc2)[C@H](O)[C@H](Cc2ccccc2)N1Cc1cccc(CO)c1,MT-2,-,EC90,RF,-,>5 µM
O[C@@H]1CSSC[C@H]1O,CEM + CEM-SS,-,EC50,RF,cytopathic effect / XTT,>200 µM
Cc1ccc(C(=O)N[C@H](C(=O)NCCCC[C@@H](CO)N(CC(C)C)S(=O)(=O)c2ccc(N)cc2)C(c2ccccc2)c2ccccc2)cn1,MT-4,PR-M46I V82T I84V L10R L63P,EC50,4596 PR-M46I V82T I84V L10R L63P,cytopathic effect / MTT,0.034 µM
O=c1[nH]c(=O)n([C@H]2C[C@H](F)[C@@H](CO)O2)cc1Br,HuT-78 + HUT 78,-,EC50,IIIB,antigen,3.4 µM
Cc1cccc2c1OP(=O)(OC[C@@H]1C=C[C@H](n3cc(C)c(=O)[nH]c3=O)O1)OC2,CEM + CEM/O,-,EC50,IIIB,syncytia,0.1 µM
CCCCCCCC/C=C\CCCCCCCCOCCOP(=O)(O)COCCn1cnc2c(NC3CC3)nc(N)nc21,MT-2,-,EC50,LAI,p24,<0.00001 µM
CC(=O)SCCOP(=O)(OCCSC(C)=O)OC[C@@H]1CC[C@H](n2cnc3c(N)ncnc32)O1,MT-4,-,EC50,LAI,RT activity,0.011 µM
O=S1(=O)CCCCS1,CEM + CEM-SS,-,EC50,RF,cytopathic effect / XTT,>5.7 µM
CC1(C)Oc2ccc3ccc(=O)oc3c2[C@@H](OC(=O)C23CCC(C)(C(=O)O2)C3(C)C)[C@H]1OC(=O)C12CCC(C)(C(=O)O1)C2(C)C,H9,-,EC50,IIIB,p24,0.000256 µM
C[C@H](CCC(=O)O)[C@H]1CC[C@H]2[C@@H]3[C@H](O)C[C@@H]4C[C@H](OS(=O)(=O)O)CC[C@]4(C)[C@H]3C[C@H](O)[C@]12C,MT-4,-,EC50,IIIB,cytopathic effect / MTT,>500 µg/mL
CC(C)CN(C[C@@H](O)[C@H](Cc1ccccc1)NC(=O)[C@H](CC(N)=O)NC(=O)c1ccc2ccccc2n1)C(=O)NC(C)(C)C,MT-4,-,EC50,PR-WT,p24,<0.05 µM
Nc1nc(=O)n(CCOCP(=O)(O)O)cc1Br,MT-2,-,EC50,LAI,p24,>100 µM
C=Cc1c(C)c2cc3[nH]c(cc4nc(cc5nc(cc1[nH]2)C(C)=C5CCC(=O)O)C(CCC(=O)O)=C4C)c(C)c3C=C,PBMC,-,EC50,LAV,RT activity,0.48–3.62 µM
C=C(c1ccc(OC)c(OC)c1)c1nccc2cc(OC)c(OC)cc12,H9,-,EC50,IIIB,p24,>1.85 µg/mL
CC(C)=CCN1Cc2cc(Cl)cc3[nH]c(=S)n(c23)C[C@@H]1C,HT4 + HT4 LacZ-1,RT-D67N K70R T215Y K219Q,EC50,RTMC,plaque count,0.14 µM
Cc1cn([C@H]2C=C[C@@H](CO)O2)c(=O)[nH]c1=O,CEM + CEM/O,-,EC50,IIIB,syncytia,0.36 µM
C[C@H](CCC(=O)O)[C@H]1CC[C@H]2[C@@H]3C[C@H](OS(=O)(=O)O)[C@@H]4C[C@H](OS(=O)(=O)O)CC[C@]4(C)[C@H]3CC[C@]12C,MT-4,-,EC50,IIIB,cytopathic effect / MTT,299 µg/mL
Nc1ccn([C@H]2CC[C@@H](CO)O2)c(=O)n1,CEM + CEM-SS,-,EC50,RF,cytopathic effect / MTT,0.0947 µM
O=[N+]([O-])c1ccccc1S(=O)(=O)c1ccccc1,MT-2,-,EC50,RF,cytopathic effect / XTT,9.28 µM
Cc1ccnc2c1NC(=O)c1cccnc1N2C1CC1,PBMC,RT-E89G,EC50,RT-M184V,p24,0.2 µM
COc1ccc(S(=O)(=O)N(CC(C)C)C[C@@H](O)[C@H](Cc2cc(F)cc(F)c2)NC(=O)O[C@H]2CO[C@H]3OCC[C@H]32)cc1,MT-2,-,EC50,LAI,MTT,0.0002 µM
COc1ccc(Cc2cc3cc(OC)c(OC)cc3c[n+]2C)cc1OC,H9,-,EC50,IIIB,p24,>100 µg/mL
O=C(CNC(=O)C(=O)/C=C(\O)c1cccn1Cc1ccc(F)cc1)OC[C@@H]1C=C[C@H](n2ccc(=O)[nH]c2=O)O1,MT-4,-,EC50,IIIB,RT activity,>10 µM
C[C@H](CCC(=O)O)[C@H]1CC[C@H]2[C@@H]3CC[C@@H]4C[C@H](OS(=O)(=O)O)CC[C@]4(C)[C@H]3C[C@H](OS(=O)(=O)O)[C@]12C,MT-4,-,EC50,IIIB,cytopathic effect / MTT,>311 µg/mL
CC(C)Nc1cccnc1N1CCN(C(=O)c2cc3cc(NS(C)(=O)=O)ccc3[nH]2)CC1,PBMC,-,EC50,HXB2,p24,0.01 µM
CC(C)CN(C[C@@H](O)[C@H](Cc1ccccc1)NC(=O)[C@H](CC(N)=O)NC(=O)c1ccc2ccccc2n1)C(=O)NC(C)(C)C,MT-4,PR-M46I L63P,EC95,NL4-3,p24,0.2 µM
CC(=O)OCC1(COC(C)=O)CSS(=O)C1,CEM + CEM-SS,-,EC50,RF,cytopathic effect / XTT,>14.3 µM
C[C@H](CCC(=O)O)[C@H]1CC[C@H]2[C@@H]3[C@H](OS(=O)(=O)O)C[C@@H]4C[C@H](OS(=O)(=O)O)CC[C@]4(C)[C@H]3C[C@H](OS(=O)(=O)O)[C@]12C,MT-4,-,EC50,IIIB,cytopathic effect / MTT,214 µg/mL
Cc1cc(C#N)cc(C)c1Oc1nc(Nc2ccc(C#N)cc2)nc(N)c1Br,MT-4,K103N,EC50,IIIB,MTT,0.0024 µM
CC(=O)SCCOP(=O)(OCCSC(C)=O)OC[C@@H]1CC[C@H](n2cnc3c(=O)[nH]cnc32)O1,CEM + CEM TK-,-,EC50,LAI,RT activity,0.3 µM
O=C1C=C2[C@H]3C=CC[C@]2(O1)[C@H]1CCCCN31,MT-4,-,EC50,NL4-3,MTT,45 µM
CC1=C(C(=O)Nc2ccc(Cl)c(C(=O)OC(C)C)c2)SCCO1,CEM,-,EC50,IIIB,syncytia,0.042 µM
Cc1cn([C@H]2C=C[C@@H](COC(=O)CNC(=O)C(=O)/C=C(\O)c3cc(OCc4ccccc4)cc(OCc4ccccc4)c3)O2)c(=O)[nH]c1=O,MT-4,-,EC50,IIIB,RT activity,1.8 µM
Nc1ccn(CCOCP(=O)(O)O)c(=O)n1,MT-2,-,EC50,LAI,p24,>100 µM
Cc1cn([C@H]2C=C[C@@H](CO)O2)c(=O)[nH]c1=O,CEM + CEM-SS,-,EC50,LAI,RT activity,15 µM
C[n+]1ccc(-c2c3nc(c(-c4cc[n+](C)cc4)c4ccc([nH]4)c(-c4cc[n+](C)cc4)c4nc(c(-c5cc[n+](C)cc5)c5ccc2[nH]5)C=C4)C=C3)cc1,PBMC,-,EC50,LAV,RT activity,0.66–3.23 µM
O=c1ccn([C@H]2C[C@H](F)[C@@H](CO)O2)c(=O)[nH]1,HuT-78 + HUT 78,-,EC50,IIIB,antigen,3.8 µM
COc1ccc(C(C)c2nccc3cc(OC)c(OC)cc23)cc1OC,H9,-,EC50,IIIB,p24,>11.6 µg/mL
CCc1c(Sc2cc(C)cc(C)c2)n(COCCOP(=O)(O)OC[C@H]2O[C@@H](n3cc(C)c(=O)[nH]c3=O)C[C@@H]2N=[N+]=[N-])c(=O)[nH]c1=O,MT-4,-,EC50,IIIB,cytopathic effect,0.002 µM
COC(=O)N[C@H](C(=O)N[C@@H](Cc1ccccc1)[C@@H](O)CN(Cc1ccc(-c2ccccn2)cc1)NC(=O)[C@@H](NC(=O)OC)C(C)(C)C)C(C)(C)C,MT-2,-,EC50,LAI,MTT,0.003 µM
O=c1[nH]c(=O)n([C@H]2C[C@H](F)[C@@H](CO)O2)cc1I,HuT-78 + HUT 78,-,EC50,IIIB,antigen,4.4 µM
COc1ccc(Cc2nccc3c(OC)c(OC)ccc23)cc1OC,H9,-,EC50,IIIB,p24,>10.2 µg/mL
CC(=O)O[C@H]1CSSC[C@H]1OC(C)=O,CEM + CEM-SS,-,EC50,RF,cytopathic effect / XTT,>200 µM
CCCCCCCCCCCCCCCCOCCCOP(=O)(O)COCCn1cnc2c(NC3CC3)nc(N)nc21,MT-2,-,EC50,LAI,p24,<0.00001 µM
NC(=O)c1cccc(CN2C(=O)N(Cc3cccc(C(N)=O)c3)[C@H](Cc3ccccc3)[C@H](O)[C@H]2CCc2ccccc2)c1,MT-2,-,EC90,RF,-,0.035 µM

Again, the opening 5 rows:

compound	cell line	changes	endpoint	strain	method	result
OCC1(CO)CSSC1	CEM + CEM-SS	-	EC50	RF	cytopathic effect / XTT	>200 µM
Cc1cn([C@H]2C[C@H](N=[N+]=[N-])[C@@H](COP(=O)(O)C(=O)O)O2)c(=O)[nH]c1=O	MT-4	-	EC50	SCV 4005	antigen	0.016 µM
CCCCCCCCCCCCCCCCOCCCOP(=O)(O)COCCn1cc(F)c(=O)[nH]c1=O	MT-2	-	EC50	LAI	p24	24 µM
Cc1cn([C@H]2C[C@H](N=[N+]=[N-])[C@@H](CO)O2)c(=O)[nH]c1=O	MT-4	-	EC50	IIIB	RT activity	1.4 µM
CCCCCCCCCCCCCCCCOCCCOP(=O)(O)COCCn1ccc(N)nc1=O	MT-2	-	EC50	LAI	p24	>10 µM

Conditions beyond the fields shown may differ between rows. ECn is the concentration giving n% inhibition of infection, replication or growth. Two numbers with a dash give a range or band.